Data from patent US7138231B2 (priority 2000, dated 2006).

System: HIV-1 protease site-directed mutants (N88S, L63P, V77I, M46L) in resistance test vector
Test: Phenotypic susceptibility assay of resistance test vectors with site-directed mutations in PR

CC(C)(C)NC(=O)[C@@H]1C[C@@H]2CCCC[C@@H]2CN1C[C@@H](O)[C@H](Cc1ccccc1)NC(=O)[C@H](CC(N)=O)NC(=O)c1ccc2ccccc2n1 [saquinavir]
Fold Change vs. Reference (site-directed mutations L63P, V77I): 1.24 fold | Fold Change vs. Reference (site-directed mutations L63P, V77I, N88S): 1.24 fold | Fold Change vs. Reference (site-directed mutations M46L, L63P, N88S): 1.15 fold
